# What was measured:
# HCoV-229E [1] = experiment: HCoV-229E-Luc infection assay (luciferase) in Huh-7/TMPRSS2 cells; type: cell-based; details: purified compounds, CC50/IC50, Huh-7/TMPRSS2
# HCoV-229E [2] = experiment: HCoV-229E-Luc infection assay (luciferase) in Huh-7 cells; type: cell-based; details: purified compounds, CC50/IC50, Huh-7 (head prints Huh-7/TMPRSS2)
SMILES,Huh-7/TMPRSS2 SI (HCoV-229E [1]),SI (column after Huh-7 IC50) (HCoV-229E [2])
"CC1(C)CC[C@]2(C(=O)O)CC[C@]3(C)C(=CC[C@@H]4[C@@]5(C)CC[C@H](OC(=O)/C=C/c6ccc(O)cc6)C(C)(C)[C@@H]5CC[C@]43C)[C@@H]2C1 [F7-1, 3-O-trans-p-coumaroyl-oleanolic acid]",3,3
"C[C@H]1[C@H](C)CC[C@]2(C(=O)O)CC[C@]3(C)C(=CC[C@@H]4[C@@]5(C)C[C@@H](OC(=O)/C=C\c6ccc(O)cc6)[C@H](O)C(C)(C)[C@@H]5CC[C@]43C)[C@H]12 [F2-3, 3β-hydroxy-2α-cis-p-coumaryloxy-urs-12-en-28-oic acid]",3,3
"CC1(C)CC[C@]2(C(=O)O)CC[C@]3(C)C(=CC[C@@H]4[C@@]5(C)CC[C@H](OC(=O)/C=C/c6ccc(O)c(O)c6)C(C)(C)[C@@H]5CC[C@]43C)[C@@H]2C1 [F4-2, 3-O-trans-caffeoyl-oleanolic acid]",7,6
"C[C@H]1[C@H](C)CC[C@]2(C(=O)O)CC[C@]3(C)C(=CC[C@@H]4[C@@]5(C)C[C@@H](OC(=O)/C=C/c6ccc(O)cc6)[C@H](O)C(C)(C)[C@@H]5CC[C@]43C)[C@H]12 [F2-2, 3β-hydroxy-2α-trans-p-coumaryloxy-urs-12-en-28-oic acid]",3,3

# Reference: article PMC10705938, “Discovery of Anti-Coronavirus Cinnamoyl Triterpenoids Isolated from Hippophae rhamnoides during a Screening of Halophytes from the North Sea and Channel Coasts in Northern France” (International Journal of Molecular Sciences, 2023)
